Pooled drug test results. Numbers come from NIAID ChemDB, via PubChem.

Common to all: whole-cell or culture tests; agent: Vaccinia virus; measure: EC50

Conditions beyond the fields shown may differ between rows. ECn is the concentration giving n% inhibition of infection, replication or growth. Blank or dashed fields: not listed here.

| SMILES | cell line | strain | result |
|---|---|---|---|
| C/C(=N\NC(=S)NNC(=S)c1ccc(Cl)cc1)C12CC3CC(CC(C3)C1)C2 | E6SM | - | >40 µg/mL |
| CC1(C)[C@H](CO)C[C@@H]1Cn1nnc2c(N)nc(N)nc21 | E6SM | - | 50 µg/mL |
| NC(=O)c1ncn([C@@H]2O[C@H](CO)[C@@H](O)[C@H]2O)c1C#CCO | PRK | - | 1 µg/mL |
| Nc1ncnc2c1ccn2[C@@H]1O[C@H](CO)[C@H](O)[C@H]1O | HeLa | - | ≥10 µg/mL |
| Nc1nc2c(ncn2COCCO)c(=O)[nH]1 | VERO | - | >144 µM |
| Nc1nc(Cl)c2nnn(C[C@H]3CC[C@@H](CO)C3)c2n1 | E6SM | - | >200 µg/mL |
| Cc1ccnc2c1NC(=O)c1cccnc1N2C1CC1 | HFF | - | >300 µM |
| COc1c(C)c2c(c(O)c1C/C=C(\C)CCC(=O)O)C(=O)OC2 | VERO 76 | Copenhagen strain wild type | 0.4 µM |
| Nc1ncnc2c1ncn2C[C@H](O)CO | PRK | - | >70 µg/mL |
| Nc1nccc2c1ncn2[C@@H]1O[C@H](CO)[C@@H](O)[C@H]1O | PRK | - | 7 µg/mL |
| Nc1nc(N)c2ncn(C[C@H]3CC[C@@H](CO)C3)c2n1 | E6SM | - | >400 µg/mL |
| Nc1nc2c(ncn2COC(CO)CO)c(=O)[nH]1 | HFF | - | >392 µM |
| Nc1ccn(C[C@H]2COP(=O)(O)CO2)c(=O)n1 | HFF | - | 0.6 µM |
| OCCOC(CO)n1cnc2cc(Cl)c(Cl)cc21 | E6SM | - | >200 µg/mL |
| O=c1[nH]c(=O)n([C@H]2C[C@H](O)[C@@H](CO)S2)cc1C1CCC1 | E6SM | - | 802 µM |
| O=c1[nH]c(=O)n([C@H]2C[C@H](O)[C@@H](CO)O2)cc1/C=C/Br | E6SM | - | 2 µg/mL |
| O=c1[nH]cnc2c1ncn2[C@H]1CC[C@@H](CO)O1 | HFF | - | >300 µM |
| CCCCOC(=O)C(C)NP(=O)(COCCn1cnc2c(N)ncnc21)NC(C)C(=O)OCCCC | HFF | WR | 4.4 µM |
| Nc1nccc2c1ncn2[C@@H]1C=C[C@@H](O)[C@H]1O | PRK | - | 0.7 µg/mL |
| Nc1ncnc2c1ncn2[C@@H]1O[C@H](C#CCl)[C@@H](O)[C@H]1O | E6SM | - | 70 µM |
| C[C@H](O)[C@@H]1C[C@H](Cn2nnc3c(=O)[nH]cnc32)C1(C)C | E6SM | - | >100 µg/mL |
| OC[C@H]1O[C@@H](n2cnc3cc(Cl)c(Cl)cc32)[C@@H](O)[C@H]1O | E6SM | - | >40 µg/mL |
| CC1(C)[C@H](CO)C[C@@H]1Cn1cnc2c(=O)[nH]c(N)nc21 | E6SM | - | >400 µg/mL |
| O=c1[nH]c(=O)n([C@H]2C[C@H](O)[C@@H](CO)O2)cc1/C=C/Br | E6SM | - | 5.8 µM |
| O=c1[nH]c(=O)n([C@H]2C[C@H](O)[C@@H](CO)O2)cc1/C=C/Br | E6SM | - | 1 µg/mL |
| Nc1ncnc2c1ccn2[C@@H]1C[C@H](CO)[C@@H](O)[C@H]1O | PRK | - | 2 µg/mL |
| Cn1cc(NC(=O)c2cc(NC(=O)CN=C(N)N)cn2C)c(C(=O)NCCC(=N)N)c1 | PRK | - | 2 µg/mL |
| C[C@H](NP1(=O)CO[C@@H](Cn2ccc(N)nc2=O)CO1)C(=O)OCCc1ccccc1 | HFF | NYC | 16 µM |
| Nc1nccc2c1ncn2[C@@H]1C[C@H](CO)[C@@H](O)[C@H]1O | VERO 76 | Copenhagen strain wild type | 20 µM |
| NC(=O)c1c[se]c([C@@H]2O[C@H](CO)[C@@H](O)[C@H]2O)n1 | VERO | Elstree | 3 µg/mL |
| NC(=O)c1ncn([C@@H]2O[C@H](CO)[C@@H](O)[C@H]2O)c1C#Cc1ccccc1 | PRK | - | 300 µg/mL |
| Nc1ccn(C[C@H]2COP(=O)(O)CO2)c(=O)n1 | VERO 76 | Copenhagen strain wild type | 21 µM |
| Nc1ccn(C[C@H]2COP(=O)(O)CO2)c(=O)n1 | VERO | - | 90 µM |
| Nc1ccn([C@@H]2C[C@H](CO)[C@@H](O)[C@H]2O)c(=O)n1 | PRK | - | 15 µg/mL |
| Nc1nc2c(nnn2C[C@H]2CC[C@@H](CO)C2)c(=O)[nH]1 | E6SM | - | >200 µg/mL |
| NC(=O)c1ncn([C@@H]2O[C@H](CO)[C@@H](O)[C@H]2O)c1C#CCCO | PRK | - | 2 µg/mL |
| CC(C)(C)NC(=O)[C@@H]1CN(Cc2cccnc2)CCN1C[C@@H](O)C[C@@H](Cc1ccccc1)C(=O)N[C@H]1c2ccccc2C[C@H]1O | HFF | - | >300 µM |
| O[C@@H]1CC(n2cnc3cc(Cl)c(Cl)cc32)OC[C@@H]1O | E6SM | - | >100 µg/mL |
| CCCc1cn([C@H]2C[C@H](O)[C@@H](CO)S2)c(=O)[nH]c1=O | E6SM | - | 170 µM |
| Nc1nc(NCC(F)(F)F)c2ncn(CCOCP(=O)(O)O)c2n1 | HFF | NYC | 50 µM |
| Nc1ccn(C[C@@H](CO)OCP(=O)(O)O)c(=O)n1 | HFF | Elstree | 41.6 µM |
| O=c1[nH]c(=O)n([C@H]2C[C@H](O)[C@@H](CO)O2)cc1C1CCC1 | E6SM | - | 850 µM |
| CCCCCCCCCCCCCCCCOCCCOP1(=O)CO[C@@H](Cn2ccc(N)nc2=O)CO1 | HFF | IHD | 0.1 µM |
| OC[C@H]1O[C@@H](n2cnc3cc(Cl)c(Cl)cc32)[C@@H](O)[C@@H]1O | E6SM | - | >10 µg/mL |
| Nc1nccc2c1ncn2[C@@H]1C[C@H](CO)[C@@H](O)[C@H]1O | PRK | - | 0.8 µg/mL |
| CC(C)[Si]1(C(C)C)OC[C@H]2O[C@@H](n3cnc4cc(Cl)c(Cl)cc43)[C@H](O)[C@H]2O[Si](C(C)C)(C(C)C)O1 | E6SM | - | >10 µg/mL |
| O=c1[nH]c(=O)n([C@H]2C[C@H](O)[C@@H](CO)S2)cc1C1CC1 | E6SM | - | 1.3 µM |
| C=CCNc1nc(N)nc2c1ncn2CCOCP(=O)(O)O | HFF | NYC | 16 µM |
| CCc1cn([C@H]2C[C@H](O)[C@@H](CO)S2)c(=O)[nH]c1=O | E6SM | - | 0.45 µM |
| CCCCCCCCCCCCCCCCOCCCOP(=O)(O)CO[C@H](CO)Cn1ccc(N)nc1=O | HFF | Elstree | 1.2 µM |
| Nc1ncnc2c1ncn2[C@@H]1C=C(CO)[C@@H](O)[C@H]1O | PRK | - | 0.02 µg/mL |
| Cc1cn([C@H]2C[C@H](O)[C@@H](CO)S2)c(=O)[nH]c1=O | E6SM | - | 0.004 µM |

7 of the rows above, restated:

{"SMILES": "OC[C@H]1O[C@@H](n2cnc3cc(Cl)c(Cl)cc32)[C@@H](O)[C@@H]1O", "cell line": "E6SM", "result": ">10 µg/mL"}
{"SMILES": "Nc1nc2c(ncn2COCCO)c(=O)[nH]1", "cell line": "VERO", "result": ">144 µM"}
{"SMILES": "NC(=O)c1ncn([C@@H]2O[C@H](CO)[C@@H](O)[C@H]2O)c1C#CCO", "cell line": "PRK", "result": "1 µg/mL"}
{"SMILES": "C=CCNc1nc(N)nc2c1ncn2CCOCP(=O)(O)O", "cell line": "HFF", "strain": "NYC", "result": "16 µM"}
{"SMILES": "C[C@H](NP1(=O)CO[C@@H](Cn2ccc(N)nc2=O)CO1)C(=O)OCCc1ccccc1", "cell line": "HFF", "strain": "NYC", "result": "16 µM"}
{"SMILES": "Nc1ncnc2c1ncn2C[C@H](O)CO", "cell line": "PRK", "result": ">70 µg/mL"}
{"SMILES": "O=c1[nH]c(=O)n([C@H]2C[C@H](O)[C@@H](CO)O2)cc1/C=C/Br", "cell line": "E6SM", "result": "5.8 µM"}